Experimental data reported in patent US20070134665.
Results from cells or extracts need not show a direct contact. No signal at the amounts used counts as a negative.

Amino acid sequences for entries named in this document (tags omitted). A change or cut given only in a name is not applied to a line headed by its entry.
UniProt P04483: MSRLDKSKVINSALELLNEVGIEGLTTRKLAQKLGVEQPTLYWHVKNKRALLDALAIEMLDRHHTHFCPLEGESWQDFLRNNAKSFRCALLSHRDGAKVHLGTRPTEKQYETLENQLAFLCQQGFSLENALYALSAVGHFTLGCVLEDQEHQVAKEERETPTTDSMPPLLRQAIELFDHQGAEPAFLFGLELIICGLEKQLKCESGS

Target: TetR-PML IV fusion (UniProt P04483)
Experiment: binding assay
Settings: protein in cells

Row | Sequence | binding result (multiplex detection in co-transfected cells, no co-localisation of signals, label: 5' Cy3 or biotin) | binding result (in situ fluorescence in fixed cells, 50-100 nM Cy5 Tet-O, 150 mM KCl, herring sperm DNA, 37 C, label: 5' Cy5 or biotin)
1 | GCGTGTGCCAGAATTGTGAGCGCTCACAATTTCTTGAATCT / AGATTCAAGAAATTGTGAGCGCTCACAATTCTGGCTCACGC [O-Sym] | no binding | –
2 | TCGAGTTTACTCCCTATCAGTGATAGAGAACGTATGTCGCC / GGCGACATACGTTCTCTATCACTGATAGGGAGTAAACTCGT [Tet-O] | – | binds
